PubChem BioAssay AID449764 (Southern Research Specialized Biocontainment Screening …, 2010)

System: Mycobacterium tuberculosis H37Rv growth inhibition, no glycerol
Test: Confirmatory growth inhibition assay, Mycobacterium tuberculosis H37Rv, absence of glycerol (AID 449764);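 note: growth read after 7 days of incubation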
Settings: measured here: IC90 growth inhibition

Q: Which IC90 does the source give for `O=[N+]([O-])c1cc([N+](=O)[O-])c(-c2cnn(-c3ccccc3)c2)c([N+](=O)[O-])c1` here?
A: The IC90 was 11.9 µM.
